Reference: patent US20240382586A1 (TAKIS S R L, published 2024)
Where two headings read alike, the source gives them in different places.

Key:
[1] = biological target: T1, RBD-6His Brazilian variant (SARS-CoV-2); experiment: ELISA, coated RBD-6His
T1 construct: domain: RBD

[2] = biological target: T2, RBD-6His South African variant (SARS-CoV-2); experiment: ELISA, coated RBD-6His
T2 construct: domain: RBD

[3] = biological target: T1, RBD-6His Brazilian variant
[4] = biological target: T2, RBD-6His South African variant
[5] = biological target: SARS-CoV-2 spike, African variant B.1.351 (on pseudovirus) (SARS-CoV-2); experiment: cell-based or functional assay
[6] = biological target: T3, RBD variant Indian (SARS-CoV-2); experiment: BLI affinity assay on RBD variants
T3 construct: domain: RBD

[7] = biological target: T4, RBD-6His Californian variant (SARS-CoV-2); experiment: BLI affinity assay on RBD variants
T4 construct: domain: RBD

[8] = biological target: T5, RBD variant Omicron BA.1 (SARS-CoV-2); experiment: BLI affinity assay on RBD variants
T5 construct: domain: RBD

[9] = biological target: T6, RBD variant Delta (SARS-CoV-2); experiment: BLI affinity assay on RBD variants
T6 construct: domain: RBD

[10] = biological target: T1, RBD-6His Brazilian variant
[11] = biological target: T2, RBD-6His South African variant

Row | Binder | IC50 [1] [µg/mL] | IC50 [2] [µg/mL] | Kd [3] [nM] | Kd [4] [nM] | IC50 (ng/ml), pseudovirus neutralisation, African B1.1.351 [5] [ng/mL] | Kd [6] [nM] | Kd [7] [nM] | Kd [8] [nM] | Kd [9] [nM] | Kd [10] [nM] | Kd [11] [nM]
1 | 9-8F2-B11 (mouse) (antibody, V domains shown) VH: EVQLQQSGAELVKPGASVKLSCTASGFNIKETYVHWVKQRPEQGLEWIGRIDPAIGDSEYDPKFQGKATVTADTSSNTAYLQLSRLTSEDTAVYYCARTWGPFFDFWGQGTTLTVSS VL: DVVMTQTPLSLPVSLGDQASISCRSSQSLVHSHGNTFLHWYLQKPGQSPKVLIYKVSSRFSGVPDRFSGSGAGTDFTLKISRVEAEDLGVYFCSQSTHVPYTFGGGTKLEIK | 0.0144 | 0.009 | 1.31 | 5.52 | 175 | – | – | – | – | – | –
2 | 9-2H7-D7 (mouse) (antibody, V domains shown) VH: EVQLQQSGPELVKPGASVTISCKTSGYTFTEYTMYWVKQSHGKSLEWIGGINPYIGDTSYNQNFKGKATLTVDKSSSTAYMELRSLTSEDSAVYYCARDGYPDYSAMDFWGQGTSVTVSS VL: DIVMSQSPSSLAVSVGEKVTMNCKSSQNLLYSSNQKNYLAWYQQKPGQSPKLLIYWASTRESGVPDRFTGSGSGTDFTLTISSVKAEDLAVYSCQQYYTYPWTFGGGTKLEIK | 0.0195 | 0.0195 | < 0.001 | < 0.001 | 46 | – | – | – | – | – | –
3 | 9-7A4-C2 (mouse) (antibody, V domains shown) VH: EVQLQQSGPELVKPGASVKISCKTSGYTFTEYTMYWVKQSHGKSLEWIGGINPNNGDSSYIQKFKGKATLTVDESSSTAYMELRSLTSEDSAVYYCARDGYPNSYAMDYWGQGTSVTVSS VL: DIVMSQSPSSLAVSVGDKVTMSCKSSQSLLYSTNQKNYLAWYQQKPGQSPKLLIYWASTRESGVPDRFTGSGSGTDFTLTIGSVRPEDLAVYYCQQYYSYPWTFGGGTKLEIK | 0.056 | 0.0132 | 1.62 | 4.51 | – | – | – | – | – | – | –
4 | 3-12B12-F4 (antibody, V domains shown) VH: EVQLQQSGAELVRPGALVKLSCKASGFNIKDYYMHWVKQRPEQGLEWIGWIDPENGNSIYDPKFQGKASITADTSFNTVNLHLSSLTSEDTAVYYCAPYYYDSTYVGTMDYWGQGTSVTVSS VL: QIVLTQSPAIMSASPGEKVTMTCSASSSVGYMYWYQQKPGSSPRLLIYDTSNLASGVPVRFGGSGSGTSYSLTISRMEAEDAATYYCQQWSSYPPRTFGGGTKLEIK | – | – | – | – | – | 1.21 | 2.25 | 1.21 | 2.25 | – | –
5 | humanised 9-8F2-B11 (VH3VL3) (antibody, V domains shown, also called 9-8F2-B11 humanised) VH: QVQLVQSGAEVKKPGASVKVSCKASGFNIKETYVHWVRQAPGQGLEWMGRIDPAIGDSEYAQKFQGRVTMTRDTSISTAYMELSRLRSDDTAVYYCARTWGPFFDFWGQGTLVTVSS VL: DIVMTQTPLSLSVTPGQPASISCKSSQSLLHSHGNTFLHWYLQKPGQSPQVLIYKVSSRFSGVPDRFSGSGSGTDFTLKISRVEAEDVGVYYCSQSTHVPYTFGQGTKLEIK | – | – | – | – | – | – | – | – | – | 6.07 | 18.2
